# Values of other authors in patent US4868157A, “Dipeptidyl 2-amino-1,2-dideoxy-D-glucose derivatives as host resistance enhancers in AIDS-immunocompromised hosts and methods of use” (priority 1987, dated 1989).
# System: AIDS-related virus
substance,measurement,value
Interleukin-2: Protein made by white blood cells that mediates production of interferon,therapeutic benefit / clinical improvement in AIDS patients,not encouraging
